What was measured:
[1] = molecular target: Biotinylated 2019-nCoV (COVID-19) S1 protein (16-685), His, Avitag (SARS-CoV-2), P0DTC2; assay: SPR, Biacore T200, geomean
[2] = molecular target: wild-type (WT) S1 domain of the SARS-COV-2 Spike Protein (ACROBiosystems, S1N-C82E8) (SARS-CoV-2), P0DTC2; assay: FP direct binding
[3] = molecular target: Biotinylated SARS-CoV-2 (COVID-19) S protein RBD, His, Avitag (SARS-CoV-2), P0DTC2; assay: SPR, Biacore T200, geomean
[4] = molecular target: SARS-CoV-2 protein used in the SPR assay of Example 2 (not named); assay: SPR

For CMNEANPVCRFYC (modifications not checked) [BCY16919], the Kd [1] was 0.0208 µM.

CPYVAGRGTCLLC (modifications not checked) [BCY16926] was tested, and the Kd [1] was 2.47 µM.

ACYNHANPVCRYYCA (modifications not checked) [BCY16545] showed a Kd [2] of 0.641 µM.

ACYNHANPVCRYYCA (modifications not checked) [BCY15522] gave a Kd [2] of 0.37 µM.

CYNHANPVCRYYC (modifications not checked) [BCY16544] was tested, and the Kd [2] was 0.921 µM.

CPYSPGQGTCLLC (modifications not checked) [BCY19537] gave a Kd [3] of 2.65 µM.

ACDWTCYFRPLPCA (modifications not checked) [BCY16933] showed a Kd [1] of 0.0253 µM.

CPYQPGSGTCLLC (modifications not checked) [BCY19538] showed a Kd [3] of 2.1 µM.

ACEDNDWVYCSTCA (modifications not checked) [BCY17543] gave a Kd [1] of 0.178 µM.

Binder ACPYVAGRATCLLCA (modifications not checked) [BCY16318] has a Kd [2] of 0.602 µM.

For CASPDNPVCRFYC (modifications not checked) [BCY15576], the Kd [1] was 0.0899 µM and the pKD [4] was 6.88.

CMNEDNPVCRFYC (modifications not checked) [BCY16916] gave a Kd [1] of 0.0179 µM.

With CPYLAGTGTCLLC (modifications not checked) [BCY19543] the Kd [3] was 2.94 µM.

For CLNPDNPVCRFYC (modifications not checked) [BCY16910], the Kd [1] was 0.0226 µM.

CANPDNPVCRFYC (modifications not checked) [BCY16903] gave a Kd [1] of 0.0111 µM.

With CRNPDNPVCRFYC (modifications not checked) [BCY16905] the pKD [4] was 7.98.

With CANHDNPVCRFYC (modifications not checked) [BCY16902] the Kd [1] was 0.024 µM.

CMNTDNPVCRFYC (modifications not checked) [BCY16908] gave a Kd [1] of 0.0339 µM.

ACASPDNPVCRFYCA (modifications not checked) [BCY16538] showed a Kd [2] of 0.229 µM.

With CLNVDNPVCRFYC (modifications not checked) [BCY16909] the Kd [1] was 0.0263 µM.

ACPYVAGRGTCLLCA (modifications not checked) [BCY16322] was tested, and the Kd [2] was 0.722 µM.

CPYAPGMGTCLLC (modifications not checked) [BCY19545] was tested, and the Kd [3] was 1.57 µM.
